# Results: article PMC7416112 (Structure(London, England:1993), 2020)
# Target: BG505 SOSIP.v4.1-2XStrep (N332) (HIV-1 (BG505))
# Test: BLI
substance,measurement,value
2G12 Fab2,koff,0.000965 s⁻¹
same,kon,227000 M⁻¹ s⁻¹
